Measured values from US8008251B2, “Macrocyclic inhibitors of hepatitis C virus” (Tibotec Pharmaceuticals Ltd., priority 2005, dated 2011).

Sequences of proteins named here, by UniProt entry; tags and fusion partners are left off. A change or cut given only in a name is not applied to a line headed by its entry. Residues count along the entry.
UniProt P27958, 1027-1657 limits assumed: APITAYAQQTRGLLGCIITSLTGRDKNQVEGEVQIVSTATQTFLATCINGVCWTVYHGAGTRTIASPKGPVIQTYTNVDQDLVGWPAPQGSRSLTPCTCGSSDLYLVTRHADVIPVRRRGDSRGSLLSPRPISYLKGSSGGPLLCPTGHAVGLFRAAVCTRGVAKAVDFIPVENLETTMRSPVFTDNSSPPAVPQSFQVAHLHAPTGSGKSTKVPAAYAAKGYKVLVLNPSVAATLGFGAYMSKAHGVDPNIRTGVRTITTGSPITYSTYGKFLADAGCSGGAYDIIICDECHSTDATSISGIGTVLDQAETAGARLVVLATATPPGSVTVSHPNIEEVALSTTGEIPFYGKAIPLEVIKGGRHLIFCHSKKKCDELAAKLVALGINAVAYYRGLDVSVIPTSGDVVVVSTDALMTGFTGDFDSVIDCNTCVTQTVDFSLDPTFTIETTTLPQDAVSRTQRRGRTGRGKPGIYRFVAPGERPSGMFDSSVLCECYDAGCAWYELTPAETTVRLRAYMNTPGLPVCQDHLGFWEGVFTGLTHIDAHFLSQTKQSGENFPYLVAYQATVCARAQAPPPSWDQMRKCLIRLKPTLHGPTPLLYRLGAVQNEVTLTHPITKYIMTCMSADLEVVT

What was measured:
[1] = tested on: HCV replicons (NS3-NS5B regions of HCV type 1b) in Huh-7 luc/neo cells; experiment: HCV replicon assay (Huh-Luc, luciferase readout); type: cell-based; conditions: read-out: EC50 (μM) Replicon assay, three days incubation, luciferase activity
[2] = biological target: full-length hepatitis C NS3 protease enzyme with NS4A cofactor (HCV NS3/4A protease) (Hepatitis C virus genotype 1a, UniProt P27958); experiment: Enzymatic inhibition assay of HCV NS3/4A protease; conditions: read-out: Ki (nM) Enzymatic assay; 1 nM enzyme, 25 μM NS4A cofactor, 0.5 μM substrate, competitive inhibition model
[3] = In vitro metabolic blocking by ritonavir in human liver microsomes; type: in vitro ADME; conditions: human liver microsomes 1 mg/ml

SMILES: COc1ccc2c(O[C@@H]3C[C@H]4C(=O)N[C@]5(C(=O)NS(=O)(=O)C6CC6)C[C@H]5/C=C\CCCCN(C)C(=O)N4C3)cc(-c3nc(C(C)C)cs3)nc2c1
- EC50 [1]: 0.055 µM
- Ki [2]: 0.45 nM
- % Detected Compound, 30′, ritonavir ([3]; 3 μM test compound + 10 μM ritonavir, 30 min): 93%
- % Detected Compound, 120′, ritonavir ([3]; 3 μM test compound + 10 μM ritonavir, 120 min): 102%
- % Detected Compound, 30′, No Booster ([3]; 3 μM test compound, 30 min, no ritonavir): 71%
- % Detected Compound, 120′, No Booster ([3]; 3 μM test compound, 120 min, no ritonavir): 20%
